According to patent US20250143290A1, “AGROCHEMICAL COMPOSITION COMPRISING AT LEAST ONE AGROCHEMICAL ACTIVE COMPONENT AND A SOLVENT” (MINAGRO SRL, priority 2022, published 2025):

Tested on: microorganisms of the inoculum

SMILES: CCCCOCC1CCCO1 (centres unmarked) [n-butyl THF, 2-(butoxymetyl)tetrahydrofuraan]
- readily biodegradable (28-day test OECD301F): 100%
- Biodegradation (%) (day 0, OECD301F, 22±1° C., test material 92 mg/L): 0.0%
- Biodegradation (%) (day 7): 5.6%
- Biodegradation (%) (day 14): 77%
- biodegradability (day 18): 91%
- Biodegradation (%) (day 21): 96%
- biodegradability (day 23): 100%
- Biodegradation (%) (day 28): 105%

Where two headings read alike, the source gives them in different places.
